The subject of test [1] is Influenza strain Victoria (Colorado/B). Put plainly: Hemagglutination inhibition (HAI) antibody titer, Victoria (Colorado/B). In kind it is in vivo, influenza B virus. The following applies: for Victoria (Colorado/B) antibody titer (HAI): c1-c11 = trial month Scr,0,1,2,3,6,12,14,15,18,End; for Victoria (Colorado/B) HAI titer: vaccinated strain, by trial month.
Test [2] has as its system Influenza strain Yamagata (Phuket/B). Description: Hemagglutination inhibition (HAI) antibody titer, Yamagata (Phuket/B). It is filed as in vivo, influenza B virus. The following applies: for Yamagata (Phuket/B) antibody titer (HAI): c1-c11 = trial month Scr,0,1,2,3,6,12,14,15,18,End; for Yamagata (Phuket/B) HAI titer: vaccinated strain, by trial month.
The mark [3] stands for this setting: Patient Spain 2, vaccinated 49 days after first dose of course 1.
Setting [4] is: Patient Australia 1, vaccinated 133 days after first dose of Mavenclad course 2.
Where [5] appears, read: Patient Australia 1, vaccinated 133 days after first dose of Mavenclad course 2, Extended Panel.
The mark [6] stands for this setting: Patient Canada 1, vaccinated 104 days after first dose of Mavenclad course 1, Extended Panel.
Setting [7] is: Patient Finland 1, vaccinated 187 days after first dose of Mavenclad course 1.
[8] abbreviates: Patient Finland 1, vaccinated 187 days after first dose of Mavenclad course 1, Extended Panel.
[9] abbreviates: Patient France 1, vaccinated 33 days after first dose of Mavenclad course 2.
[10] abbreviates: Patient France 1, vaccinated 33 days after first dose of Mavenclad course 2, Extended Panel.

The values that follow come from US12533408B2, “Treatment regimen for the treatment of autoimmune disorders” (Merck Patent GmbH, priority 2020, dated 2026).

Values joined by “and” are separate entries in the source; they are usually repeats but may differ in a detail not shown here. Equal values may be shown once.

Turning to `Nc1nc(Cl)nc2c1ncn2[C@H]1C[C@H](O)[C@@H](CO)O1` [cladribine tablets, Cladribine], the “Victoria (Colorado/B) antibody titer (HAI)” value in test [1] (Patient Canada 1, vaccinated 104 days after first dose of course 1) was determined as 40; in test [1] (setting [3]), 20. The “Victoria (Colorado/B) HAI titer” value in test [1] (setting [4]) was 40; in test [1] (setting [5]), 40; in test [1] (setting [6]), 40; in test [1] (setting [7]), 40 and 60; in test [1] (setting [8]) it was 40 and 60; in test [1] (setting [9]), 80 and 40. Moreover, the “Victoria (Colorado/B) HAI titer” value in test [1] (setting [10]) was 80 and 40. Besides, the “Yamagata (Phuket/B) antibody titer (HAI)” value in test [2] (Patient Canada 1, vaccinated 104 days after first dose of course 1, listed as Mavenclad) is 40 and 20; in test [2] (Patient Spain 1, vaccinated 113 days after first dose of course 1, listed as Mavenclad) it was 40 and 30; in test [2] (setting [3]), 20; in test [2] (Patient Spain 3, vaccinated 72 days after first dose of course 1, listed as Mavenclad), 20 and 30 and 40. The “Yamagata (Phuket/B) HAI titer” value was 80 and 60 and 40 in test [2] (setting [4]); 80 and 60 and 40 in test [2] (setting [5]); 40 and 20 in test [2] (setting [6]); 80 in test [2] (setting [7]); 80 in test [2] (setting [8]); 80 and 40 in test [2] (setting [9]). Moreover, the “Yamagata (Phuket/B) HAI titer” value in test [2] (setting [10]) is 80 and 40; in test [2] (Patient Spain 1, vaccinated 113 days after first dose of Mavenclad course 1, Extended Panel), 40 and 30; in test [2] (Patient Spain 3, vaccinated 72 days after first dose of Mavenclad course 1, Extended Panel), 20 and 30 and 40.
